Anti-infective test results gathered from many reports (values: NIAID ChemDB through PubChem).

Shared fields: whole-cell or culture tests; organism: Cryptococcus neoformans; read-out: MIC

Blank or dashed fields: not listed here. Lines come from different laboratories, so protocols vary.

smiles | strain | read by | value
OCc1c(-c2ccc3c(c2)OCO3)sc2ccccc12 | Farwania |  | 12.5 µg/mL
Oc1ccccc1N=Cc1ccccc1 | VM-MCMMPI | broth dilution | 5.7 µg/mL
C[C@@H](n1ncn(-c2ccc(OCC(F)(F)C(F)F)cc2)c1=O)[C@](O)(Cn1cncn1)c1ccc(F)cc1F | DUMC 135.97 |  | 0.125 µg/mL
CC[C@@H]([C@H](C)O)n1ncn(-c2ccc(N3CCN(c4ccc(OC[C@@H]5CO[C@@](Cn6cncn6)(c6ccc(F)cc6F)C5)cc4)CC3)cc2)c1=O | DUMC114.90 |  | 0.063 µg/mL
Cc1noc(NS(=O)(=O)c2ccc(N)cc2)c1C | IFM 40216 |  | 64 µg/mL
Oc1ccccc1N=Cc1ccc(F)cc1 | 96806 | broth dilution | 5.7 µg/mL
COc1cc(O)c2c(c1)C(=O)c1c(cc3c(c1O)-c1c(cc(C)c(C(=O)NCC(=O)O)c1O)[C@H](OC1OC(C)C(N(C)C)C(OC4OCC(O)C(O)C4O)C1O)[C@H]3O)C2=O | CS-01 |  | 3.1 µg/mL
O=C1/C(=C/c2ccc(-c3ccccc3)cc2)CSc2ccccc21 | 93/V |  | 6 µg/mL
OCC1c2ccccc2SC1c1ccccc1 | Farwania |  | 12.5 µg/mL
C=CC[C@@H]1/C=C(/C)C[C@H](C)C[C@H](OC)[C@H]2O[C@@](O)(C(=O)C(=O)N3CCCC[C@H]3C(=O)O[C@H](/C(C)=C/[C@@H]3CC[C@@H](O)[C@H](OC)C3)[C@H](C)[C@@H](O)CC1=O)[C@H](C)C[C@@H]2OC | C21F3 |  | 100 µg/mL
Cn1nc(Cc2ccc(Cl)cc2)c2ccccc2c1=O | Clinical isolate (IM 983040) | broth dilution | 3.9 µg/mL
C[C@@H](c1ncncc1F)[C@](O)(Cn1cncn1)c1ccc(F)cc1F | B 35735 | broth dilution | 0.031 µg/mL
CCOC(=O)c1c(C)nc(NCCCCNc2ccnc3cc(Cl)ccc23)nc1-c1ccc(F)cc1 | ATCC 24067 |  | 5.7 µg/mL
C[C@@H](c1ncncc1F)[C@](O)(Cn1cncn1)c1ccc(F)cc1F | Clinical isolate (IM 983040) | broth dilution | <0.015 µg/mL
Oc1cccc(C=Nc2ccccc2O)c1 | ATCC 24067 | broth dilution | 2.8 µg/mL
O=C1/C(=C/c2ccc(Cl)cc2)CSc2ccccc21 | 25 |  | 3 µg/mL
COc1cccc(-c2sc3ccccc3c2CO)c1O | Isolate 25 |  | 50 µg/mL
Cc1cc(NS(=O)(=O)c2ccc(N)cc2)nc(C)n1 | IFM 51976 |  | ≥256 µg/mL
COc1ccccc1/C=C1\COc2ccc(-c3ccccc3)cc2C1=O | 93/V |  | 50 µg/mL
CCCCCOc1ccc(-c2cc(-c3ccc(C(=O)N[C@H]4C[C@@H](O)[C@@H](O)NC(=O)[C@@H]5[C@@H](O)[C@@H](C)CN5C(=O)[C@H]([C@H](O)CC(N)=O)NC(=O)[C@H]([C@H](O)[C@@H](O)c5ccc(O)c(OS(=O)(=O)O)c5)NC(=O)[C@@H]5C[C@@H](O)CN5C(=O)[C@H]([C@@H](C)O)NC4=O)cc3)no2)cc1 | FMR 8409 |  | 64 µg/mL
C[C@@H](n1cnc2cc(Cl)ccc2c1=O)[C@](O)(Cn1cncn1)c1ccc(F)cc1F | Isolate 158.03 |  | 1.25 µg/mL
COc1cc(NS(=O)(=O)c2ccc(N)cc2)ncn1 | IFM 40216 |  | ≥256 µg/mL
Oc1ccccc1N=Cc1cccc(O)c1O | WP | broth dilution | 2.8 µg/mL
CC(C(O)(Cn1cncn1)c1ccc(F)cc1F)S(C)(=O)=O | R716 (AZOLE-R) |  | 10 µM
O=C1/C(=C/c2ccc3ccccc3c2)CSc2ccccc21 | 93/V |  | 25 µg/mL
Oc1ccc(O)c(C=Nc2ccccc2O)c1 | 5396 | broth dilution | 11.3 µg/mL
COc1ccc(-c2sc3ccccc3c2CO)c(O)c1 | 93/V |  | 50 µg/mL
COc1cc(NS(=O)(=O)c2ccc(N)cc2)nc(OC)n1 | IFM 49624 |  | ≥256 µg/mL
C[C@@H](c1nc(-c2ccc(C#N)cc2)cs1)[C@](O)(Cn1cnnc1)c1ccc(F)cc1F | A28201 |  | 0.015 µg/mL